According to publication PMC11110755, “Structure-based virtual screening of unbiased and RNA-focused libraries to identify new ligands for the HCV IRES model system” (RSC Medicinal Chemistry, 2024):

What was measured:
HCV IRES subdomain IIa = assay type: binding, hepatitis C virus; conditions: at high concentrations
Experimental: For the MST assay, the same sequence of the two stranded HCV IRES subdomain IIa as for the FRET assay was used. One strand was 5′-Cy5-labelled and the other strand was unmodified ([…], Cy5-[…], Biomers.net GmbH). All samples containing labelled RNA were treated under light protection. MST experiments were performed on a Monolith NT.115 from NanoTemper Technologies using standard uncoated capillaries. The strands were annealed by heating to 75 °C in MST buffer (10 mM HEPES pH 7.0, 2 mM MgCl2) and cooled down to room temperature for at least 20 min. The 5′-Cy5-labelled HCV IRES domain IIa RNA was diluted to 30 nM in MST buffer and supplemented with compounds 8–25 in appropriate concentrations. Compounds 4 and 5 were used as positive controls. For the initial screening, compounds were added to final concentrations of 1000 (or 316 if limited by solubility), 100, 10 and 0.001 μM (Fig. S5 ^†). If a concentration-dependent shift of thermophoresis was observed, KD-values were determined using concentrations ranging from 1 mM (if permitted by solubility, otherwise starting from 316 or 100 μM) to 0.01 μM in a 3.16-fold (semi-logarithmic) dilution series. For each experiment, one DMSO negative control was carried out. Final DMSO concentration was always 2%.
(§1) Off-target counter screens by MST were performed as described previously.[31,84] Briefly, the 5′-Cy5-labelled Tte preQ1-Riboswitch aptamer domain (Biomers.net GmbH) was heated to 75 °C for 5 min, cooled down to room temperature for at least 20 min and then diluted to 20 nM in MST buffer (50 mM Tris-HCl pH 7.5, 100 mM KCl, 25 mM MgCl2) and supplemented with compounds 4, 5, 8–13, 18, 21, 22 and 26 to final concentrations of 1000, 100, 10 and 0.001 μM. PreQ1 was used as a positive control. The 5′-Cy5-labelled B. angulatum SAM VI-Riboswitch aptamer domain (Eurofins Genomics GmbH) was heated to 75 °C for 5 min, cooled down to room temperature for at least 20 min and then diluted to 20 nM in MST buffer (50 mM Tris-HCl pH 7.5, 100 mM KCl, 25 mM MgCl2) and supplemented with compounds 5, 9 and 28 to final concentrations of 1000, 100, 10 and 0.001 μM. SAM was used as a positive control. For each experiment, one DMSO negative control was carried out. The final DMSO concentration was 2%. All measurements were performed at least as duplicates for pre-screening and triplicates for KD-determination. MST measurements were analyzed from signals after 18 s laser on-time using the MO.Affinity Analysis software (version 2.3) and exported for statistical analysis and plotting in GraphPad Prism (version 8.0.1., GraphPad Software, Boston, Massachusetts USA, https://www.graphpad.com).

[1] = system: Tte preQ1-Riboswitch aptamer domain; assay: MST off-target counter screen, preQ1-riboswitch aptamer domain; assay type: binding, Thermoanaerobacter tengcongensis; conditions: at high concentrations
Experimental: as §1

Question: `CN(C)CCCn1c(N)nc2ccc3c(c21)CC(CN(C)C)CO3` (stereo not drawn) [Compound 5, reference compound] was tested. Which “aggregation in MST pre-screening (HCV IRES)” value (from here on “aggregation … (HCV IRES)”) (HCV IRES subdomain IIa) did it give?
Answer: AggregaƟon

Question: How did the “aggregation … (HCV IRES)” value (HCV IRES subdomain IIa) turn out when `CCOc1ccc2c(C)nc(NC(=N)NC)nc2c1` [Compound 8] was run?
Answer: AggregaƟon

Question: For `CCOc1ccc2c(C)nc(NC(=N)N)nc2c1` [Compound 8a], which “aggregation … (HCV IRES)” value (HCV IRES subdomain IIa) is on record?
Answer: AggregaƟon

Question: What about the “aggregation in preQ1-riboswitch MST counter-screening” value [1] of the same molecule?
Answer: AggregaƟon

Question: With `CNC(=N)Nc1nc(C)c2ccc(OC)cc2n1` [Compound 8b] as the molecule, how does the “aggregation … (HCV IRES)” value (HCV IRES subdomain IIa) read?
Answer: AggregaƟon

Question: And the “aggregation in preQ1-riboswitch MST counter-screening” value [1]?
Answer: AggregaƟon

Question: How did the “aggregation … (HCV IRES)” value (HCV IRES subdomain IIa) turn out when `COc1ccc2c(C)nc(NC(=N)N)nc2c1` [Compound 8c] was run?
Answer: AggregaƟon

Question: And the “aggregation in preQ1-riboswitch MST counter-screening” value [1]?
Answer: AggregaƟon

Question: How did the “aggregation in preQ1-riboswitch MST counter-screening” value [1] turn out when `Nc1nc(N2CCN(Cc3c(Cl)ccc(O)c3Cl)CC2)cc(=O)[nH]1` [Compound 9] was run?
Answer: AggregaƟon

Question: How did the “aggregation … (HCV IRES)” value (HCV IRES subdomain IIa) turn out when `NC(=O)c1c[nH]c2ccc(NC(=O)CCc3cc4n(n3)CCCNC4)cc12` [Compound 10] was run?
Answer: AggregaƟon

Question: And the “aggregation in preQ1-riboswitch MST counter-screening” value [1]?
Answer: AggregaƟon

Question: Which “aggregation … (HCV IRES)” value (HCV IRES subdomain IIa) does the source give for `Nc1cc(-c2ccc3[nH]ncc3c2)c2cc[nH]c2n1` [Compound 12] here?
Answer: AggregaƟon

Question: With `NC1=NC(c2cn[nH]c2-c2cccc(O)c2)n2c(nc3ccccc32)N1` (stereo not drawn) [Compound 13] as the molecule, how does the “aggregation in preQ1-riboswitch MST counter-screening” value [1] read?
Answer: AggregaƟon

Question: Which “aggregation … (HCV IRES)” value (HCV IRES subdomain IIa) does the source give for `N=C(N)NC(=O)c1nc(Cl)c(N)nc1N` [Compound 26, amiloride, reference compound] here?
Answer: AggregaƟon

Question: How did the “aggregation … (HCV IRES)” value (HCV IRES subdomain IIa) turn out when `CN(C)C(=O)COC(=O)Cc1ccc(OC(=O)c2ccc(NC(=N)N)cc2)cc1` [Compound 27, Camostat, reference compound] was run?
Answer: AggregaƟon
